This series concerns Euglena gracilis Z. The series is described as follows: Effect of organic acids, with or without glucose, on Euglena growth in shake flasks (Example 9). In kind it is cell-based. As to conditions: for levels of organic acids in the media: low acid concentrations (0.0005-0.05 g/L), end of 48 h.
The mark [1] stands for this setting: higher acid concentrations (2-5 g/L), incubation 0 h.
Where [2] appears, read: higher acid concentrations (2-5 g/L), incubation 48 h.
[3] abbreviates: higher acid concentrations (2-5 g/L), incubation 120 h.
The mark [4] stands for this setting: lower acid concentrations (0.0005-0.05 g/L), incubation 0 h.
[5] abbreviates: lower acid concentrations (0.0005-0.05 g/L), incubation 48 h.

With `O=C(O)/C=C/C(=O)O` [Fumarate only], the “Fumarate conc. in media” value is recorded as 3.46 g/L under setting [1]; 0.91 g/L under setting [2]; 1.55 g/L under setting [3]; 0.0007 g/L under setting [4]; 0.0003 g/L under setting [5].
Consider `O=C[C@H](O)[C@@H](O)[C@H](O)[C@H](O)CO` [Glucose (Control)], for which the “Fumarate conc. in media” value came out at 0.00 g/L under setting [1]; 0.00 g/L under setting [2]; 0.00 g/L under setting [3]; 0.0003 g/L under setting [4]; 0.0039 g/L under setting [5]. Besides, the “Lactate conc. in media” value reads like this: under setting [1], 0.01 g/L; under setting [2], 0.00 g/L; under setting [3], 0.00 g/L; under setting [4], 0.01 g/L; under setting [5], 0 g/L. In addition, the “Malate conc. in media” value by setting is: under setting [1], 0.00 g/L; under setting [2], 0.03 g/L; under setting [3], 0.00 g/L; under setting [4], 0 g/L; under setting [5], 0.0757 g/L. Besides, the “Pyruvate conc. in media” value is listed as 0.00 g/L under setting [1]; 0.00 g/L under setting [2]; 0.00 g/L under setting [3]; 0 g/L under setting [4]; 0 g/L under setting [5]. The “Succinate conc. in media” value under setting [1] stood at 0.43 g/L; the “Succinate conc. in media” value under setting [2] was determined as 0.65 g/L; the “Succinate conc. in media” value under setting [3] was determined as 0.72 g/L; the “Succinate conc. in media” value under setting [4] worked out at 0.4884 g/L; the “Succinate conc. in media” value under setting [5] was 0.6744 g/L.
Regarding `CC(O)C(=O)O` (stereo not shown) [Lactic acid only], the “Lactate conc. in media” value is, setting by setting: under setting [1], 3.67 g/L; under setting [2], 0.00 g/L; under setting [3], 0.02 g/L; under setting [4], 0.05 g/L; under setting [5], 0 g/L.
Consider `O=C(O)CC(O)C(=O)O` (stereo not shown) [Malate only], for which the “Malate conc. in media” value by setting is: under setting [1], 4.78 g/L; under setting [2], 0.73 g/L; under setting [3], 0.90 g/L; under setting [4], 0.049 g/L; under setting [5], 0 g/L.
Take `CC(=O)C(=O)O` [Pyruvate only]: the “Pyruvate conc. in media” value under setting [1] was found to be 1.31 g/L; the “Pyruvate conc. in media” value under setting [2] is reported as 0.00 g/L; the “Pyruvate conc. in media” value under setting [3] stood at 0.00 g/L; the “Pyruvate conc. in media” value under setting [4] came out at 0.06 g/L; the “Pyruvate conc. in media” value under setting [5] was 0 g/L.
On to `O=C(O)CCC(=O)O` [Succinate acid only], for which the “Succinate conc. in media” value is, setting by setting: under setting [1], 5.17 g/L; under setting [2], 0.61 g/L; under setting [3], 0.51 g/L; under setting [4], 0.5328 g/L; under setting [5], 0.5042 g/L.
On to `CC(O)C(=O)O` (stereo not shown) [lactic acid], for which the “levels of organic acids in the media” value is reported as “not detectable”.
In the case of `CC(=O)C(=O)O` [pyruvate, pyruvic acid], the “levels of organic acids in the media” value is reported as “not detectable”.

Values taken from patent US20220259551A1, “METHODS OF OPTIMIZED EUGLENA FERMENTATION USING ENGINEERED TANK DESIGN” (NOBLEGEN INC., priority 2019, published 2022).
